Anti-infective test results gathered from many reports (values: NIAID ChemDB through PubChem).

Shared fields: growth or infection tests; species: Candida dubliniensis

Neighbouring rows are from separate reports. A number after MIC or MFC names an inhibition level or a share of isolates. Two numbers with a dash give a range or band.

{"structure": "c1ccc(C(c2ccccc2)n2nnc3ccccc32)cc1", "measure": "MFC", "method": "broth dilution", "value": ">256 µg/mL"}
{"structure": "CCOC(=O)C1C(=O)C=C(c2ccc(C)cc2)CC1c1ccc(C2CC(c3ccc(C)cc3)=CC(=O)C2C(=O)OCC)cc1", "measure": "MIC", "strain or isolate": "Clinical isolate", "value": "25 µg/mL"}
{"structure": "CCCCCOc1ccc(-c2cc(-c3ccc(C(=O)N[C@H]4C[C@@H](O)[C@@H](O)NC(=O)[C@@H]5[C@@H](O)[C@@H](C)CN5C(=O)[C@H]([C@H](O)CC(N)=O)NC(=O)[C@H]([C@H](O)[C@@H](O)c5ccc(O)c(OS(=O)(=O)O)c5)NC(=O)[C@@H]5C[C@@H](O)CN5C(=O)[C@H]([C@@H](C)O)NC4=O)cc3)no2)cc1", "measure": "MIC50", "method": "broth dilution", "value": "0.06 µg/mL"}
{"structure": "CC[C@@H]([C@H](C)O)n1ncn(-c2ccc(N3CCN(c4ccc(OC[C@@H]5CO[C@@](Cn6cncn6)(c6ccc(F)cc6F)C5)cc4)CC3)cc2)c1=O", "measure": "MIC50", "value": "0.008–0.5 µg/mL"}
{"structure": "c1ccc(C(c2ccccc2)n2cncn2)cc1", "measure": "MIC90", "method": "agar", "value": "8 µg/mL"}
{"structure": "O=c1c(N2CCOCC2)c(N2CCN(S(=O)(=O)Cc3ccccc3)CC2)cnn1-c1ccccc1", "measure": "MIC", "method": "broth dilution", "strain or isolate": "C345", "value": "50 µg/mL"}
{"structure": "Clc1ccc(C(c2ccccc2)N2CCN(CCn3ccnc3)CC2)cc1", "measure": "MFC", "method": "broth dilution", "value": ">256 µg/mL"}
{"structure": "CCCCCOc1ccc(-c2ccc(-c3ccc(C(=O)N[C@H]4C[C@@H](O)[C@@H](O)NC(=O)[C@@H]5[C@@H](O)[C@@H](C)CN5C(=O)[C@H]([C@H](C)O)NC(=O)[C@H]([C@H](O)[C@@H](O)c5ccc(O)cc5)NC(=O)[C@@H]5C[C@@H](O)CN5C(=O)[C@H]([C@H](C)O)NC4=O)cc3)cc2)cc1", "measure": "MIC50", "value": "0.015–0.25 µg/mL"}
{"structure": "O=C(O)c1ccc(C[C@H](C(=O)O)[C@@H](O)C(=O)O)cc1", "measure": "MIC", "strain or isolate": "CBS 7987", "value": "2 µg/mL"}
{"structure": "CC(C)CC(O)C(=O)O", "measure": "MFC100", "method": "broth dilution / visual reading", "strain or isolate": "T-98 QC2000", "value": "36000 µg/mL"}
{"structure": "CCOC(=O)C1C(=O)C=C(c2ccccc2)CC1c1ccc(C2CC(c3ccccc3)=CC(=O)C2C(=O)OCC)cc1", "measure": "MIC", "strain or isolate": "Clinical isolate", "value": "6.25 µg/mL"}
{"structure": "c1ccc(C(c2ccccc2)n2cnc3ccccc32)cc1", "measure": "MFC", "method": "broth dilution", "value": ">256 µg/mL"}
{"structure": "CCC(C)CC(C)CCCCCCCCC(=O)N[C@H]1C[C@@H](O)[C@H](NCCN)NC(=O)[C@@H]2[C@@H](O)CCN2C(=O)[C@H]([C@H](O)CCN)NC(=O)[C@H]([C@H](O)[C@@H](O)c2ccc(O)cc2)NC(=O)[C@@H]2C[C@@H](O)CN2C(=O)[C@H]([C@@H](C)O)NC1=O", "measure": "MIC", "method": "broth dilution", "strain or isolate": "C345", "value": "0.125 µg/mL"}
{"structure": "CCOC(=O)C1C(=O)C=C(c2ccc(Br)cc2)CC1c1ccc(C2CC(c3ccc(Br)cc3)=CC(=O)C2C(=O)OCC)cc1", "measure": "MIC", "strain or isolate": "Clinical isolate", "value": "12.5 µg/mL"}
{"structure": "O=C(c1ccccc1)C(c1ccccc1)n1nnc2ccccc21", "measure": "MFC", "method": "broth dilution", "value": ">256 µg/mL"}
{"structure": "CCC(C)n1ncn(-c2ccc(N3CCN(c4ccc(OC[C@H]5CO[C@](Cn6cncn6)(c6ccc(Cl)cc6Cl)O5)cc4)CC3)cc2)c1=O", "measure": "MIC50", "method": "broth dilution", "value": "0.016 µg/mL"}
{"structure": "Clc1ccc(C(c2ccccc2)n2nnc3ccccc32)cc1", "measure": "MFC", "method": "broth dilution", "value": ">256 µg/mL"}
{"structure": "CC(C)CC(=O)C(=O)O", "measure": "MFC100", "method": "broth dilution", "strain or isolate": "EO 323", "value": ">72000 µg/mL"}